Tests used:
[1] = system: Plasmopara viticola; assay: Test 10: protective value on cucumber inoculated with Plasmopara viticola; type: in vivo, Plasmopara viticola (cucumber plant, Suyo); settings: 500 ppm, 20 ml sprayed; lesions six days after inoculation
[2] = system: Rhizoctonia solani; assay: Test 2: protective value on rice plants inoculated with Rhizoctonia solani; type: in vivo, Rhizoctonia solani (rice plant, Chukyo Asahi); settings: 100 ppm, 20 ml sprayed; lesion length after 5 days
[3] = system: Sphaerotheca fuliginea; assay: Test 4: protective value on cucumber inoculated with Sphaerotheca fuliginea; type: in vivo, Sphaerotheca fuliginea (cucumber plant, Suyo); settings: 500 ppm, 10 ml sprayed; lesions ten days after inoculation

Work on `[N-]=[N+]=Nc1c(C(F)(F)F)cc([N+](=O)[O-])c(Nc2ncc(C(F)(F)F)cc2Cl)c1[N+](=O)[O-]` yielded a Protective value [1] of 100%, a Preventive value [2] of 95% and a Protective value [3] of 100%.

Reference: patent US4331670A (priority 1979, dated 1982)
